Results of unrelated studies side by side (data: NIAID ChemDB).

All rows: growth or infection tests; organism: HIV-2; read-out: EC50

Neighbouring rows are from separate reports. ECn: concentration that inhibits the pathogen or its effect by n%. An empty or dashed field is not shown.

{"compound": "Cc1cn([C@H]2C=C[C@@H](COP3(=O)OCc4cccc(CCC(=O)O)c4O3)O2)c(=O)[nH]c1=O", "strain or isolate": "LAV-2", "cells": "CEM + CEM TK-", "method": "syncytia", "value": "20 µM"}
{"compound": "Cc1ccccc1Cn1cc(CSc2nc(Cc3cccc4ccccc34)c(C)c(=O)[nH]2)nn1", "strain or isolate": "ROD", "method": "MTT", "value": ">24.01 µM"}
{"compound": "C#C[C@]1(CO)O[C@@H](n2cnc3c(N)nc(F)nc32)CC1O", "strain or isolate": "ROD9", "changes": "K65R M184V", "cells": "MAGIC-5A", "method": "β-galactosidase / absorbance", "value": "0.008 µM"}
{"compound": "CCOP(=O)(/C=C\\n1cc(I)c(=O)[nH]c1=O)OCC", "strain or isolate": "ROD", "cells": "CEM + CEM-SS", "value": ">200 µM"}
{"compound": "Cc1cn([C@H]2C[C@H](N=[N+]=[N-])[C@@H](CO)O2)c(=O)[nH]c1=O", "strain or isolate": "LAV-2", "cells": "U-937", "method": "virus yield", "value": "<1 µM"}
{"compound": "COC(=O)N[C@H](C(=O)N[C@@H](Cc1ccccc1)[C@@H](O)CN(Cc1ccc(-c2ccccn2)cc1)NC(=O)[C@@H](NC(=O)OC)C(C)(C)C)C(C)(C)C", "strain or isolate": "ROD", "cells": "MT-2", "method": "MTT", "value": "0.0077 µM"}
{"compound": "CCOP(=O)(/C=C\\n1cnc2c(=O)[nH]c(NC(C)=O)nc21)OCC", "strain or isolate": "ROD", "cells": "CEM + CEM-SS", "value": ">200 µM"}
{"compound": "Nc1nc(NC2CC2)c2ncn([C@H]3C=C[C@@H](CO)C3)c2n1", "strain or isolate": "LAV-2", "cells": "HeLa + HELA CD4+", "method": "plaque count", "value": "7.5 µM"}
{"compound": "COC(=O)[C@H](C)NP(=O)(OC[C@H]1C/C1=C/n1cnc2c(N)nc(N)nc21)Oc1ccccc1", "strain or isolate": "ROD", "cells": "MT-2", "method": "p24", "value": "0.38 µM"}
{"compound": "CSC[C@H](NC(=O)COc1cccc2cnccc12)C(=O)N[C@@H](Cc1ccccc1)[C@H](O)C(=O)N1CSC(C)(C)[C@H]1C(=O)NC(C)(C)C", "strain or isolate": "ROD", "cells": "ATH8", "method": "trypan blue", "value": "0.1 µM"}
{"compound": "Cc1cn([C@H]2C=C[C@@H](COP3(=O)OCc4cccc(-c5ccccc5)c4O3)O2)c(=O)[nH]c1=O", "cells": "CEM + CEM/O", "value": "0.27 µM"}
{"compound": "O=C(NCc1ccc(F)cc1)c1nc(N2CCCCS2(=O)=O)c2cccnc2c1O", "strain or isolate": "ROD", "method": "β-galactosidase", "value": "0.0086 µM"}
{"compound": "Cc1cn([C@H]2C[C@H](N=[N+]=[N-])[C@@H](CO)O2)c(=O)[nH]c1=O", "strain or isolate": "1814", "cells": "PBMC", "method": "ELISA", "value": "0.007 µM"}
{"compound": "Nc1ncnc2c1ncn2CCOCP(=O)(O)O", "strain or isolate": "CBL-20", "cells": "C8166", "method": "MTT", "value": "26 µM"}
{"compound": "Cc1cn([C@H]2C=C[C@@H](COP3(=O)OCc4c(ccc5ccccc45)O3)O2)c(=O)[nH]c1=O", "cells": "CEM + CEM TK-", "value": "0.8 µM"}
{"compound": "Nc1nc2c(ncn2C2CC=C[C@H]2CO)c(=O)[nH]1", "strain or isolate": "ROD", "cells": "CEM/TK-", "value": ">100 µM"}
{"compound": "CC(=O)O[C@@]12C[C@@H](C)[C@@]3(O)[C@@H](C=C(CO)C[C@]4(O)C(=O)C(C)=C[C@@H]34)[C@@H]1C2(C)C", "strain or isolate": "CBL-20", "cells": "C8166", "method": "cytopathic effect", "value": "0.568 µM"}
{"compound": "COc1ccc2c(c1)N(C(=O)OC(C)C)[C@@H](CSC)C(=S)N2", "strain or isolate": "ROD", "cells": "PBL", "method": "p24", "value": ">10 µM"}
{"compound": "O=c1c(O)c(-c2ccc(O)c(O)c2)oc2cc(O)cc(O)c12", "strain or isolate": "ROD", "cells": "C8166", "method": "ELISA", "value": ">50 µg/mL"}
{"compound": "CC(C)=CCN1Cc2cccc3[nH]c(=S)n(c23)C[C@@H]1C", "strain or isolate": "ROD", "cells": "PBMC", "method": "RT activity", "value": ">6.25 µM"}
{"compound": "NC(=O)c1ccc(Cn2cc(CSc3nc(Cc4cccc5ccccc45)cc(=O)[nH]3)nn2)cc1", "strain or isolate": "ROD", "method": "MTT", "value": ">105 µM"}
{"compound": "CC(C)[C@H](NC(=O)c1ccc2ccccc2n1)C(=O)N[C@@H](Cc1ccccc1)[C@H](O)CN1CC[C@@H](OCc2ccncc2)C[C@H]1C(=O)NC(C)(C)C", "strain or isolate": "ROD", "cells": "CEMx174", "method": "p24 / ELISA / antigen", "value": "0.004 µM"}
{"compound": "Cc1cn([C@H]2C[C@H](N=[N+]=[N-])[C@@H](CO)O2)c(=O)[nH]c1=O", "strain or isolate": "ROD", "method": "cytopathic effect / XTT", "value": "0.002 µM"}
{"compound": "CSC[C@H](NC(=O)COc1cccc2cnccc12)C(=O)N[C@@H](Cc1ccccc1)[C@H](O)C(=O)N1CSC(C)(C)[C@H]1C(=O)NC(C)(C)C", "strain or isolate": "ROD", "cells": "ATH8", "method": "cytopathic effect", "value": "0.13 µM"}
{"compound": "CN=C1CN=C(c2ccc[nH]2)c2cc(Cl)ccc2N1", "strain or isolate": "ROD", "cells": "HT4 + HT4-6C", "method": "plaque count", "value": "3 µM"}
{"compound": "Cc1cn([C@H]2C=C[C@@H](CO)O2)c(=O)[nH]c1=O", "strain or isolate": "LAV-2", "cells": "CEM + CEM TK-", "method": "syncytia", "value": "15 µM"}
{"compound": "Cc1ccnc2c1NC(=O)c1cccnc1N2C1CC1", "strain or isolate": "ROD", "cells": "PBMC", "method": "RT activity", "value": ">20 µM"}
{"compound": "C#C[C@]1(CO)O[C@@H](n2ccc(N)nc2=O)[C@@H](O)[C@@H]1O", "strain or isolate": "EHO", "cells": "HeLa", "method": "β-galactosidase", "value": "0.003 µM"}
{"compound": "CCOP(=O)(/C=C/n1cc(C)c(=O)[nH]c1=O)OCC", "strain or isolate": "ROD", "cells": "CEM + CEM-SS", "value": ">200 µM"}
{"compound": "COc1ccc(Cn2cc(CSc3nc(Cc4c(Cl)cccc4Cl)c(I)c(=O)[nH]3)nn2)cc1", "strain or isolate": "ROD", "method": "MTT", "value": ">75.91 µM"}
{"compound": "Cc1cn([C@H]2C[C@H](CO)[C@@H](O)C2)c(=O)[nH]c1=O", "cells": "CEM + CEM/0", "value": "2.67 µM"}
{"compound": "O=C(O[C@@H]1Cc2c(O)cc(O)cc2O[C@@H]1c1ccc(O)c(O)c1)c1cc(O)c(O)c(O)c1", "strain or isolate": "ROD", "cells": "C8166", "method": "ELISA", "value": "1 µg/mL"}
{"compound": "O=c1[nH]cnc2c1ncn2[C@H]1CC[C@@H](CO)O1", "strain or isolate": "EHO Laboratory isolate", "cells": "MT-2", "method": "cytopathic effect / MTT", "value": "2.8 µM"}
{"compound": "Cc1cn([C@H]2C=C[C@@H](COP3(=O)Oc4cccc(Cl)c4C(C)O3)O2)c(=O)[nH]c1=O", "cells": "CEM + CEM/O", "value": "0.25 µM"}
{"compound": "CO[P@](=O)(c1cc(C)cc(/C=C/C#N)c1)c1c(C(N)=O)[nH]c2ccc(Cl)cc12", "strain or isolate": "ROD", "cells": "H9", "value": ">1.25 µM"}
{"compound": "Nc1nc(NC2CC2)c2ncn(C3CC=C[C@H]3CO)c2n1", "strain or isolate": "ROD", "cells": "CEM/TK-", "value": ">100 µM"}
{"compound": "CCN1c2cc(C)c(C)cc2N(C)S(=O)(=O)c2cccnc21", "strain or isolate": "ROD", "cells": "C8166", "method": "cytopathic effect", "value": ">150 µM"}
{"compound": "CC[C@@]1(O)C(=O)OCc2c1cc1n(c2=O)Cc2c-1nc1ccccc1c2CO", "strain or isolate": "CBL-20", "cells": "C8166", "method": "syncytia", "value": "0.0005 µg/mL"}
{"compound": "CC(C)(C)NC(=O)[C@@H]1C[C@@H]2CCCC[C@@H]2CN1C[C@@H](O)[C@H](Cc1ccccc1)NC(=O)[C@H](CC(N)=O)NC(=O)c1ccc2ccccc2n1", "strain or isolate": "ROD", "cells": "MT-2", "method": "MTT", "value": "0.003 µM"}
{"compound": "NC1=CS(=O)(=O)OC12C1CC3CC(C1)CC2C3", "value": ">200 µg/mL"}
{"compound": "CC(C)(C)OC(=O)N[C@@H](Cc1ccccc1)[C@H](O)CNC[C@@H](O)[C@H](Cc1ccc(OCC(=O)N2CCOCC2)cc1)NC(=O)OC(C)(C)C", "strain or isolate": "CBL-20", "cells": "CEM + CEM-SS", "method": "cytopathic effect / XTT", "value": "0.07 µM"}
{"compound": "Cc1cn([C@H]2C=C[C@@H](COP3(=O)OCc4cccc(CCC(=O)OC(C)(C)C)c4O3)O2)c(=O)[nH]c1=O", "strain or isolate": "LAV-2", "cells": "CEM + CEM/O", "method": "syncytia", "value": "0.5 µM"}
{"compound": "CC(C)[C@H](NC(=O)c1ccc2ccccc2n1)C(=O)N[C@@H](Cc1ccccc1)[C@H](O)CN1CC[C@@H](OCc2ccncc2)C[C@H]1C(=O)NC(C)(C)C", "strain or isolate": "ROD", "cells": "CEMx174 + CEM", "method": "p24", "value": "0.004 µM"}
{"compound": "O=C1O[C@H]2[C@@H]3OC(=O)c4cc(O)c(O)c(O)c4-c4c(cc(O)c(O)c4O)C(=O)OC[C@H]2O[C@@H](OC(=O)c2cc(O)c(O)c(O)c2)[C@@H]3OC(=O)c2cc(O)c(O)c3c2[C@@H]2C1=CC(=O)[C@](O)(O3)C2(O)O", "strain or isolate": "ROD WT", "cells": "MAGI", "value": "0.83 µg/mL"}
{"compound": "Cc1cn([C@H]2C[C@H](N=[N+]=[N-])[C@@H](CO)O2)c(=O)[nH]c1=O", "strain or isolate": "ROD", "cells": "CEM/TK-", "value": ">1000 µM"}
{"compound": "Cc1cn([C@H]2C=C[C@@H](COP3(=O)Oc4ccccc4C(C)O3)O2)c(=O)[nH]c1=O", "cells": "CEM + CEM TK-", "value": "35 µM"}
{"compound": "C#C[C@]1(CO)O[C@@H](n2cnc3c(=O)[nH]c(N)nc32)C[C@@H]1O", "strain or isolate": "ROD", "cells": "HeLa", "method": "β-galactosidase", "value": "0.026 µM"}
{"compound": "Cc1cn(/C=C\\P(=O)(O)O)c(=O)[nH]c1=O", "strain or isolate": "ROD", "cells": "CEM + CEM-SS", "value": ">200 µM"}
{"compound": "Cc1cn([C@H]2C[C@H](N=[N+]=[N-])[C@@H](CO)O2)c(=O)[nH]c1=O", "strain or isolate": "MS", "cells": "U-937", "method": "cytopathic effect / XTT", "value": "0.094 µg/mL"}
{"compound": "Cc1cn([C@H]2C[C@H](N=[N+]=[N-])[C@@H](CO)O2)c(=O)[nH]c1=O", "strain or isolate": "ROD", "cells": "HT4 + HT4-6C", "method": "plaque count", "value": "0.112 µM"}
{"compound": "CCOP(=O)(/C=C/n1cc(F)c(=O)[nH]c1=O)OCC", "strain or isolate": "ROD", "cells": "CEM + CEM-SS", "value": ">200 µM"}
{"compound": "Cc1cn([C@H]2C=C[C@@H](CO)O2)c(=O)[nH]c1=O", "cells": "CEM + CEM/0", "value": "0.35 µM"}
{"compound": "COc1ccc(CN[C@@H](C(=O)N[C@H]2c3ccccc3C[C@H]2O)[C@H](O)[C@H](Cc2ccccc2)NC(=O)[C@@H](NC(=O)OCc2ccccc2)C(C)(C)C)cc1", "strain or isolate": "ROD", "cells": "MT-4", "method": "p24", "value": "0.14 µM"}
{"compound": "CCOP(=O)(/C=C/n1cnc2c(N)ncnc21)OCC", "strain or isolate": "ROD", "cells": "CEM + CEM-SS", "value": ">200 µM"}
{"compound": "Oc1cc(O)c2c(c1)O[C@H](c1cc(O)c(O)c(O)c1)[C@@H](O)C2", "strain or isolate": "ROD", "cells": "C8166", "method": "ELISA", "value": "8 µg/mL"}
{"compound": "CC(C)(C)NC(=O)[C@@H]1CN(Cc2cccnc2)CCN1C[C@@H](O)C[C@@H](Cc1ccccc1)C(=O)N[C@H]1c2ccccc2C[C@H]1O", "strain or isolate": "EHO Laboratory isolate", "cells": "MT-2", "method": "cytopathic effect / MTT", "value": "0.01 µM"}
{"compound": "O=c1[nH]c(=O)n(/C=C/P(=O)(O)O)cc1I", "strain or isolate": "ROD", "cells": "CEM + CEM-SS", "value": ">200 µM"}
{"compound": "Cc1cc2c(c(-c3cc(C)cc4c3OP(=O)(OC[C@@H]3C=C[C@H](n5cc(C)c(=O)[nH]c5=O)O3)OC4)c1)OP(=O)(OC[C@@H]1C=C[C@H](n3cc(C)c(=O)[nH]c3=O)O1)OC2", "cells": "CEM/0 (wild type)", "method": "cytopathic effect / syncytia", "value": "0.41 µM"}
{"compound": "CC(C)CN(C[C@@H](O)[C@H](Cc1ccccc1)NC(=O)O[C@H]1CCOC1)S(=O)(=O)c1ccc(N)cc1", "strain or isolate": "ROD", "cells": "MT-2", "method": "MTT", "value": "0.37 µM"}
{"compound": "C#C[C@]1(CO)O[C@@H](n2cnc3c(N)ncnc32)C[C@@H]1O", "strain or isolate": "EHO", "cells": "HeLa", "method": "β-galactosidase", "value": "0.001 µM"}
{"compound": "O=c1[nH]c(=O)n(/C=C/P(=O)(O)O)cc1F", "strain or isolate": "ROD", "cells": "CEM + CEM-SS", "value": ">200 µM"}
{"compound": "Nc1ccn([C@@H]2CS[C@H](CO)O2)c(=O)n1", "strain or isolate": "EHO Laboratory isolate", "cells": "MT-2", "method": "cytopathic effect / MTT", "value": "0.4 µM"}
{"compound": "Cc1cccc2c1OP(=O)(OC[C@@H]1[C@@H](O)CC[C@@H]1n1cc(C)c(=O)[nH]c1=O)OC2", "cells": "CEM + CEM/0", "value": "37.5 µM"}

4 of the rows above, restated:

compound,strain or isolate,changes,cells,method,value
CSC[C@H](NC(=O)COc1cccc2cnccc12)C(=O)N[C@@H](Cc1ccccc1)[C@H](O)C(=O)N1CSC(C)(C)[C@H]1C(=O)NC(C)(C)C,ROD,,ATH8,cytopathic effect,0.13 µM
O=c1[nH]c(=O)n(/C=C/P(=O)(O)O)cc1F,ROD,,CEM + CEM-SS,,>200 µM
Cc1cn([C@H]2C=C[C@@H](COP3(=O)OCc4cccc(-c5ccccc5)c4O3)O2)c(=O)[nH]c1=O,,,CEM + CEM/O,,0.27 µM
Cc1cn([C@H]2C=C[C@@H](COP3(=O)OCc4cccc(CCC(=O)OC(C)(C)C)c4O3)O2)c(=O)[nH]c1=O,LAV-2,,CEM + CEM/O,syncytia,0.5 µM